Anti-infective test results gathered from many reports (values: NIAID ChemDB through PubChem).

Shared fields: growth or infection tests; organism: Mycobacterium tuberculosis

ECn: concentration that inhibits the pathogen or its effect by n%. Percent inhibition refers to the dose given; in toxicity tests it is the harm to the cells. MIC50, MIC90 and the like: level of inhibition, or share of isolates inhibited. MIC bound: limit read from a one-dose screen. Blank or dashed fields: not listed here. Neighbouring rows are from separate reports. a–b is a range or a potency band.

structure,strain,tested at,measure,read by,value
NNC(=O)c1ccncc1,Strain 24,-,MIC,-,>8 µg/mL
C/C=C/C=C/C1O[C@@](O)([C@H](CC)C(=O)NC/C=C/C=C(\C)[C@H](OC)C(C)[C@H]2O[C@@H](/C=C/C=C/C=C(\C)C(=O)c3c(O)ccn(C)c3=O)[C@@H](O)[C@H]2O)C(O)C(O)C1(C)C,H37Rv,12.5 µg/mL,inhibition,BACTEC,-2%
CC1=C(C(=O)Nc2ccc(F)c(Cl)c2)C(c2ccccc2[N+](=O)[O-])C(C(=O)Nc2ccc(F)c(Cl)c2)=C(C)N1,H37Rv,-,MIC,-,>6.25 µg/mL
O=c1oc2cc(Cl)ccc2c(=O)n1-c1ccc(Cl)cc1,CNCTC MY331/88,-,MIC,-,4 µM
CO[C@H]1/C=C/O[C@@]2(C)Oc3c(C)c(O)c4c(O)c(c(/C=N/N5CCN(C)CC5)c(O)c4c3C2=O)NC(=O)/C(C)=C\C=C\[C@H](C)[C@H](O)[C@@H](C)[C@@H](O)[C@@H](C)[C@H](OC(C)=O)[C@@H]1C,Clinical isolate 12,-,MIC,-,0.1 µg/mL
CCCCNC(=S)NNC(=O)COc1cnccn1,H37Rv,-,MIC,-,45 µg/mL
NNC(=O)c1ccncc1,MTB9 (RIF-R),-,MIC,-,>2 µg/mL
CCc1ccc(-n2cc(CSC3c4ccccc4-c4ccccc43)nn2)cc1,H37Rv,-,MIC99,broth dilution,261 µM
Cc1ccc(/C=N/NC(=O)Cc2cccs2)c(O)c1,H37Rv (ATCC 27294),-,MIC,resazurin,364.5 µM
CCCCCCCCN1COC2CCc3ccccc3C21,H37Rv,6.25 µg/mL,inhibition,resazurin,6%
CO[C@H]1/C=C/O[C@@]2(C)Oc3c(C)c(O)c4c(O)c(c(/C=N/N5CCN(C)CC5)c(O)c4c3C2=O)NC(=O)/C(C)=C\C=C\[C@H](C)[C@H](O)[C@@H](C)[C@@H](O)[C@@H](C)[C@H](OC(C)=O)[C@@H]1C,12761,-,MIC,-,0.06 µg/mL
Brc1ccc(-n2cc(CNC3c4ccccc4-c4ccccc43)nn2)cc1,Specimen 192,-,MIC99,broth dilution,240 µM
CO[C@H]1/C=C/O[C@@]2(C)Oc3c(C)c(O)c4c(O)c(c5c(c4c3C2=O)NC2(CCN(CC(C)C)CC2)N=5)=NC(=O)/C(C)=C\C=C\[C@H](C)[C@H](O)[C@@H](C)[C@@H](O)[C@@H](C)[C@H](OC(C)=O)[C@@H]1C,CSU11,-,MIC,-,≤0.125 µg/mL
O[C@H](c1cc(C(F)(F)F)nc2c(C(F)(F)F)cccc12)[C@H]1CCCCN1,FQR-M10,-,MIC,-,10 µg/mL
O=c1oc2ccc(Br)cc2cc1-c1cs/c(=N/N=C/c2cc([N+](=O)[O-])ccc2O)n1C1CCCCC1,H37Rv,6.25 µg/mL,inhibition,-,0%
CC(C)(O)CN1CCN(CC(O)c2ccccc2)CC1,H37Rv,12.8 µg/mL,inhibition,BACTEC,24%
Cc1ccc(-n2cc(CS(=O)(=O)C3c4ccccc4-c4ccccc43)nn2)cc1C,Specimen 192,-,MIC99,broth dilution,120 µM
COc1cccc(C2C(C(=O)Nc3ccc(F)c(Cl)c3)=C(C)NC(C)=C2C(=O)Nc2ccc(F)c(Cl)c2)c1,H37Rv,-,MIC,-,>6.25 µg/mL
NCC[C@H](O)C(=O)N[C@@H]1C[C@H](N)[C@@H](O[C@H]2O[C@H](CN)[C@@H](O)[C@H](O)[C@H]2O)[C@H](O)[C@H]1O[C@H]1O[C@H](CO)[C@@H](O)[C@H](N)[C@H]1O,A4B (amikacin-resistant),-,MIC,-,64 µg/mL
O=C(Cc1cccs1)N/N=C/c1ccccc1,H37Rv (ATCC 27294),-,MIC,resazurin,>100 µg/mL
C[C@H]1COc2c(N3CCN(C)CC3)c(F)cc3c(=O)c(C(=O)O)cn1c23,CSU21,-,MIC,-,0.5 µg/mL
COc1ccc(/C=C(/C(=O)OCC(C)C)c2ccc(OC)c(OC)c2)cc1OC,H37Rv,12.5 µg/mL,inhibition,BACTEC,0%
NNC(=O)c1ccncc1,Clinical isolate 3,-,MIC,-,0.05 µg/mL
Cc1ccc(S(=O)(=O)NCCCNC(=O)OCc2ccccc2)cc1,H37Rv,-,MIC bound,resazurin,>6.25 µg/mL
CN[C@@H]1[C@H](O[C@H]2[C@H](O[C@H]3[C@H](O)[C@@H](O)[C@H](N=C(N)N)[C@@H](O)[C@@H]3N=C(N)N)O[C@@H](C)[C@]2(O)C=O)O[C@@H](CO)[C@H](O)[C@H]1O,MTB13 (INH-R),-,MIC,-,1.25 µg/mL
COc1ccc(C2CC(=O)c3cc(C(=O)O)ccc3O2)cc1,-,-,EC50,-,>12.5 µg/mL
COc1ccc(C2C(C(=O)Nc3ccccc3Cl)=C(C)NC(C)=C2C(=O)Nc2ccccc2Cl)cc1,H37Rv,-,MIC,-,>12.5 µg/mL
O=C(CCC(=O)c1ccc(Cl)cc1)NC[C@H]1CN(c2ccc(N3CCCCC3)c(F)c2)C(=O)O1,10 clinical isolates resistant,-,MIC,-,4–8 µg/mL
O=c1oc2ccccc2cc1-c1cs/c(=N/N=C/c2ccc(Cl)c(Cl)c2)n1C1CCCCC1,H37Rv,-,MIC,-,>6.25 µg/mL
COc1ccc(-c2cs/c(=N\NC(=O)COc3cnccn3)n2C(C)C)cc1,H37Rv,-,MIC,-,7.5 µg/mL
O=C(Cc1cccs1)N/N=C/c1ccc(O)cc1O,H37Rv (ATCC 27294),-,MIC,resazurin,361.9 µM
CO[C@H]1/C=C/O[C@@]2(C)Oc3c(C)c(O)c4c(O)c(c(/C=N/N5CCN(C6CCCC6)CC5)c(O)c4c3C2=O)NC(=O)/C(C)=C\C=C\[C@H](C)[C@H](O)[C@@H](C)[C@@H](O)[C@@H](C)[C@H](OC(C)=O)[C@@H]1C,L212,-,MIC,-,0.1 µg/mL
O=C(Cc1cccs1)N/N=C/c1cccc(Cl)c1,H37Rv (ATCC 27294),-,MIC,resazurin,>100 µg/mL
COC(=O)C1=C/N(C2CCCCC2)C(=O)c2ccccc2/C(c2ccccc2)=C\1C(=O)OC,H37Rv,-,MIC bound,BACTEC,>12.5 µg/mL
O=c1cc(-c2ccc(Oc3c(O)cc4oc(-c5ccc(O)cc5)cc(=O)c4c3O)cc2)oc2cc(O)cc(O)c12,H37Rv,-,EC50,-,>12.5 µg/mL
O=C(c1ccc([N+](=O)[O-])cc1[N+](=O)[O-])N(N=CC=Cc1ccccc1)c1nnc(-c2ccccc2)c(-c2ccccc2)n1,H37Rv,12.5 µg/mL,inhibition,BACTEC,94%
Cc1ccc(-n2cc(CS(=O)(=O)C3c4ccccc4-c4ccccc43)nn2)cc1,H37Rv,-,MIC99,broth dilution,125 µM
COc1cc(OC)c2c(c1)OC(c1ccc(O)cc1)CC2=O,H37Rv,12.5 µg/mL,inhibition,-,0%
O=C(COc1cnccn1)N/N=c1\scc(-c2ccccc2)n1-c1ccc(Cl)cc1Cl,H37Rv,-,MIC,-,12.4 µg/mL
Nc1nc(Cl)cc(NCCCNc2cc(Cl)nc(N)n2)n1,H37Rv,12.5 µg/mL,inhibition,BACTEC,1%
O=c1oc2ccc(Br)cc2cc1-c1cs/c(=N/N=C/c2ccc(Cl)c(Cl)c2)n1C1CCCCC1,H37Rv,6.25 µg/mL,inhibition,-,4%
CC1C(O)CC23COC(=O)C2=CCCC3C1(C)CCC1=CC(=O)OC1,H37Rv,-,MIC bound,BACTEC,>12.5 µg/mL
O=C1CC(c2ccccc2)Oc2cc(F)ccc21,H37Rv,12.5 µg/mL,inhibition,-,7%
COC(=O)C1=C(C)N(c2ccccc2)C(C)=C(C(=O)OC)C1c1cccc(Oc2ccccc2)c1,H37Rv,-,MIC,-,>6.25 µg/mL
COc1ccc(S(=O)(=O)N/N=C/c2cnc[nH]2)cc1,H37Rv,-,MIC bound,resazurin,>6.25 µg/mL
CO[C@H]1/C=C/O[C@@]2(C)Oc3c(C)c(O)c4c(O)c(c5c(c4c3C2=O)NC2(CCN(CC(C)C)CC2)N=5)=NC(=O)/C(C)=C\C=C\[C@H](C)[C@H](O)[C@@H](C)[C@@H](O)[C@@H](C)[C@H](OC(C)=O)[C@@H]1C,2219 (rifampicin-resistant),-,MIC,-,>2 µg/mL
NC(=O)c1cnn2ccn([C@@H]3O[C@H](CO)[C@@H](O)[C@H]3O)c12,H37Rv,12.5 µg/mL,inhibition,BACTEC,0%
COc1ccc(OC)c(/C=N/N=c2/scc(-c3cc4cc(Br)ccc4oc3=O)n2C2CCCCC2)c1,H37Rv,6.25 µg/mL,inhibition,-,3%
O=C(COc1cnccn1)N/N=c1\scc(-c2ccc(Cl)cc2Cl)n1-c1ccc(Cl)cc1,H37Rv,-,MIC,-,10.8 µg/mL
CO[C@H]1/C=C/O[C@@]2(C)Oc3c(C)c(O)c4c(O)c(c(/C=N/N5CCN(C/C=C/c6ccccc6)CC5)c(O)c4c3C2=O)NC(=O)/C(C)=C\C=C\[C@H](C)[C@H](O)[C@@H](C)[C@@H](O)[C@@H](C)[C@H](OC(C)=O)[C@@H]1C,MTB2 (INH-R),-,MIC,-,0.25 µg/mL
NC[C@H]1O[C@H](O[C@H]2[C@H](O)[C@@H](O[C@H]3O[C@H](CO)[C@@H](O)[C@H](N)[C@H]3O)[C@H](N)C[C@@H]2N)[C@H](O)[C@@H](O)[C@@H]1O,H37Rv,-,MIC,-,2 µg/mL
Cc1ccc(C(=O)CCC(=O)NC[C@H]2CN(c3ccc(-[n+]4[nH]nc5ccccc54)c(F)c3)C(=O)O2)c(C)c1,ATCC 27294,-,MIC,-,>16 µg/mL
O=c1c2cc(Br)ccc2oc2ccc(Br)cc12,H37Rv,12.5 µg/mL,inhibition,BACTEC,0%
COc1ccc2oc(=O)n(-c3ccc(C(F)(F)F)cc3)c(=O)c2c1,CNCTC MY331/88,-,MIC,-,8 µM
CC(C)[C@@]1(NC(=O)[C@@H]2C=C3c4cccc5[nH]cc(c45)C[C@H]3N(C)C2)O[C@@]2(O)[C@@H]3CCCN3C(=O)[C@H](Cc3ccccc3)N2C1=O,H37Rv,-,MIC,BACTEC,≥12.8 µg/mL
Clc1ccc(-n2cc(CSC3c4ccccc4-c4ccccc43)nn2)c(Cl)c1,Specimen 192,-,MIC99,broth dilution,>236 µM
COc1ccc(/C=N/N=c2/scc(-c3cc4ccccc4oc3=O)n2C2CCCCC2)cc1OC,H37Rv,6.25 µg/mL,inhibition,-,1%
CCCCn1c(Cc2ccccc2)nc2c1C(=O)c1ccccc1C2=O,H37Rv,6.25 µg/mL,inhibition,resazurin,-25%
COc1ccc2c(=O)n(-c3ccc(F)cc3)c(=O)oc2c1,CNCTC MY331/88,-,MIC,-,16 µM
CC1CN(c2c(F)cc3c(=O)c(C(=O)O)cn(C4CC4)c3c2F)CCN1,CSU15,-,MIC,-,≤0.125 µg/mL
O=S(=O)(Cc1cn(-c2ccc(Cl)cc2Cl)nn1)C1c2ccccc2-c2ccccc21,H37Rv,-,MIC99,broth dilution,>219 µM
CC(=O)NC[C@H]1CN(c2ccc(N3CCN(Cc4ccc([N+](=O)[O-])s4)CC3)c(F)c2)C(=O)O1,16 isolates (MDR),-,MIC90,-,1 µg/mL
Cc1ccc(C(=O)CCC(=O)NC[C@H]2CN(c3ccc(-n4cncn4)c(F)c3)C(=O)O2)c(C)c1,ATCC 27294,-,MIC,-,1 µg/mL
O=C1N=C2SC(=S)NC(=S)N2NC12c1ccccc1-c1ccccc12,H37Rv,12.5 µg/mL,inhibition,BACTEC,89%
O=c1oc2ccc(Cl)cc2c(=O)n1-c1ccc(C(F)(F)F)cc1,CNCTC MY331/88,-,MIC,-,2 µM
O=[n+]1c2ccccc2n([O-])c2ccccc21,EMB-R,-,MIC,-,3.1 µg/mL
O=C(O)c1cnccn1,T7505,-,MIC,-,480 µg/mL
C/C(=N\NC(=O)CCSCCC(=O)N/N=C(\C)c1ccccc1O)c1ccccc1O,H37Rv,12.5 µg/mL,inhibition,BACTEC,0%
O=[N+]([O-])c1cc(F)ccc1-n1cc(CS(=O)(=O)C2c3ccccc3-c3ccccc32)nn1,Specimen 192,-,MIC99,broth dilution,>222 µM
Cc1cc(O)ccc1C1(c2ccc(O)cc2C)OS(=O)(=O)c2ccccc21,H37Rv,12.5 µg/mL,inhibition,BACTEC,0%
CC(=O)Nc1ccc(C(=O)CCC(=O)NC[C@H]2CN(c3ccc(-n4cncn4)c(F)c3)C(=O)O2)cc1,ATCC 27294,-,MIC,-,2 µg/mL
NC(=O)c1cc([N+](=O)[O-])cnc1Sc1ncccn1,H37Rv,12.5 µg/mL,inhibition,BACTEC,2%
NC(=O)c1cnccn1,T2614/NIACIN+,-,MIC,-,32 µg/mL